Measured values from several laboratories, pooled; numbers as filed in NIAID ChemDB.

Shared fields: growth or infection tests; organism: HIV-1; read-out: inhibition

An empty or dashed field is not shown. Inhibition is in % at the dose shown (toxicity tests: loss of growth or viability). Conditions beyond the fields shown may differ between rows.

| structure | read by | cells | strain | conditions | dose | mutations | result |
|---|---|---|---|---|---|---|---|
| Cc1nc(C(=O)C2CSCCN2)cc2c3ccccc3n(Cc3ccc(F)cc3)c12 | p24 / ELISA / antigen | CEM-GFP | NL4-3 | - | 23.84 µM | - | 0% |
| Nc1ccn([C@@H]2O[C@H](CO)C[C@@H]2F)c(=O)n1 | antigen | H9 | IIIB | - | 1 µM | - | 44% |
| CCCCN1C(=O)C(=C/C=C/C=C2/Oc3ccccc3N2CCCS(=O)(=O)O)C(=O)N(CCCC)C1=S | ELISA | PBMC | IIIB | 15 d | 200 µg/mL | - | 98.5% |
| CCN(CC)CCCC(C)Nc1ccnc2cc(Cl)ccc12 | p24 / ELISA / antigen | PBMC | NL4-3 | - | 10 µM | - | 60% |
| COc1ccccc1CN[C@H]1C2CCN(CC2)[C@H]1C(c1ccccc1)c1ccccc1 | RT activity | Macrophage + Monocytes/macrophages | CSF-8 Primary R5 isolate | - | 0.1 µM | - | 80% |
| CC(C)(C)OC(=O)N[C@@H](Cc1ccccc1)[C@@H](O)[C@@H](NCc1ccc(CNC(=O)OCc2ccccc2)cc1)C(=O)N[C@H]1c2ccccc2C[C@H]1O | cytopathic effect / MTT | MT-4 | IIIB | - | 3 µM | - | 0% |
| Nc1ccn([C@H]2CC[C@@H](CO)O2)c(=O)n1 | syncytia | HT4 + HT4-6C | LAV-1 | - | 0.001 µM | - | 28% |
| CC(C)[C@H](NS(=O)(=O)N(C)Cc1ccccn1)C(=O)N[C@@H](Cc1ccccc1)[C@@H](O)[C@H](O)[C@H](Cc1ccccc1)NC(=O)[C@@H](NS(=O)(=O)N(C)Cc1ccccn1)C(C)C | cytopathic effect | MT-4 | IIIB | - | 100 µM | - | 0% |
| Nc1nc(NC2CC2)c2ncn([C@H]3C=C[C@@H](CO)O3)c2n1 | cytopathic effect / MTT | PBMC | BRU PITT.(RT-L74V) | - | 74 µM | RT-L74V | 90% |
| CCC(C)[C@H](NC(=O)[C@H](C(C)C)[C@@H](O)[C@H](O)[C@H](CC1CCCCC1)NC(=O)c1ccccc1SCCCCC[C@@H]1SC[C@@H]2NC(=O)NC21)C(=O)NCc1ccccn1 | - | PBMC | D34 | - | 0.001 µM | - | 15% |
| CC[C@H](C)[C@H](NC(=O)[C@H](C/C=C/c1ccccc1)C[C@H](O)[C@H](Cc1ccccc1)NC(=O)OC(C)(C)C)C(=O)NCc1nc2ccccc2[nH]1 | antigen | H9 | IIIB | - | 0.012 µM | - | 100% |
| CC(C)C[C@H](NC(=O)[C@H](Cc1ccccc1)NC(=O)CNC(=O)CNC(=O)[C@@H](N)Cc1ccc(O)cc1)C(=O)N[C@@H]1O[C@H](CO)[C@@H](O)[C@H](O)[C@H]1O | syncytia / RT activity | PBL | - | - | 100 µM | - | 25% |
| CC(C)(C)OC(=O)N[C@@H](Cc1ccccc1)[C@@H](O)[C@@H](NCc1ccc(OCCO)cc1)C(=O)NCc1ccccc1 | cytopathic effect / MTT | MT-4 | IIIB | - | 3 µM | - | 0% |
| Cc1cn([C@H]2C[C@H](N=[N+]=[N-])[C@@H](CO)O2)c(=O)[nH]c1=O | p24 / ELISA | MT-4 | IIIB | - | 0.003 µg/mL | - | 90% |
| O=C(O)P(=O)(O)O | p24 / antigen | H9 | IIIB | 2 d | 150 µM | - | 90% |
| CC(C)C[C@H](NC(=O)[C@H](Cc1ccccc1)NC(=O)CNC(=O)CNC(=O)[C@@H](N)Cc1ccc(O)cc1)C(=O)OC[C@H]1O[C@@H](OCc2ccccc2)[C@H](O)[C@@H](O)[C@@H]1O | syncytia / RT activity | PBL | - | - | 100 µM | - | 15% |
| Cc1nc(C(=O)C2CSCCN2)cc2c3ccccc3n(Cc3ccccc3)c12 | p24 / ELISA / antigen | CEM-GFP | NL4-3 | - | 6.22 µM | - | 0% |
| CC(=O)Nc1ccc(OC(=O)c2ccc(N=C(N)N)cc2)cc1 | XTT / p24 | MT-4 | - | - | 100 µg/mL | - | 100% |
| Nc1ncnc2c1ncn2[C@H]1CC[C@@H](CO)O1 | virus yield | CEM | LAV-1 | - | 0.1 µM | - | 0% |
| O=c1[nH]cnc2c1ncn2[C@H]1CC[C@@H](CO)O1 | p24 | PBMC (resting) + PBMC | IIIB | - | 0.25 µM | - | 20% |
| c1cc(CN2CCCNCCNCCCNCC2)ccc1CN1CCCNCCNCCCNCC1 | p24 | PBMC | SW23 CLADE C R5 | - | 0.5 µM | - | 0% |
| CC(C)c1nc(CN(C)C(=O)N[C@H](C(=O)N[C@@H](Cc2ccccc2)C[C@H](O)[C@H](Cc2ccccc2)NC(=O)OCc2cncs2)C(C)C)cs1 | β-galactosidase | MAGI | IIIB | - | 1 µg/mL | - | 0% |
| Cc1cn([C@H]2C[C@H](N=[N+]=[N-])[C@@H](COP(=O)(O)OC[C@H]3OC(O)[C@@H](O)[C@@H](O)[C@@H]3O)O2)c(=O)[nH]c1=O | RT activity | U-937 | LAV-Bru | 14 d | 5 µM | - | 0% |
| Oc1ccc(/C=C/c2cc(O)cc(O)c2)cc1 | p24 | PBMC | EJC-R1 | clinical isolate | 10 µM | - | 55% |
| CC(C)(C)OC(=O)N[C@@H](Cc1ccccc1)[C@@H](O)[C@@H](NCc1ccccc1)C(=O)NCc1ccccc1 | cytopathic effect / MTT | MT-4 | IIIB | - | 3 µM | - | 0% |
| CC(C)C[C@H](NC(=O)[C@H](Cc1ccccc1)NC(=O)CNC(=O)CNC(=O)[C@@H](N)Cc1ccc(O[C@@H]2O[C@H](CO)[C@@H](O)[C@H](O)[C@H]2O)cc1)C(=O)O | syncytia / RT activity | PBL | - | - | 100 µM | - | 21% |
| COC(=O)[C@@H]1C2CCC(C[C@@H]1OC(=O)c1ccccc1)N2C | p24 | U1 | IIIB | - | 25 µg/mL | - | <0% |
| Cc1cn([C@H]2C[C@H](N=[N+]=[N-])[C@@H](CCP(=O)(O)Oc3ccccc3)O2)c(=O)[nH]c1=O | cytopathic effect / propidium iodide | MT-4 | IIIB | - | 200 µM | - | 0% |
| COC(=O)[C@H](C)NP(=O)(OC[C@@H]1O[C@H](n2ccc(N)nc2=O)CS1)Oc1ccccc1 | cytopathic effect | CEM | IIIB | 18 d | 10 µM | - | 50% |
| C#CCn1c2ccccc2c2cc(C(=O)C3CSCCN3)nc(C)c21 | p24 / ELISA / antigen | CEM-GFP | NL4-3 | - | 21.46 µM | - | 0% |
| Cc1cn([C@H]2C[C@H](N=[N+]=[N-])[C@@H](CO)O2)c(=O)[nH]c1=O | RT activity | CEM | LAV-Bru | 15 d | 5 µM | - | 97% |
| CC(C)(C)OC(=O)N[C@@H](Cc1ccccc1)[C@@H](O)[C@@H](NCc1ccc(OCCN2CCOCC2)cc1)C(=O)N[C@H]1c2ccccc2C[C@H]1O | cytopathic effect / MTT | MT-4 | IIIB | - | 3 µM | - | 0% |
| C/C(=C(/CCO)SSCC1CCCO1)N(C=O)Cc1cnc(C)nc1N | p24 | MOLT-4/HIV-1(IIIB) + MOLT-4 | IIIB | - | 50 µM | - | 0% |
| COc1ccc(CN[C@@H](C(=O)N[C@H]2c3ccccc3C[C@H]2O)[C@H](O)[C@H](Cc2ccccc2)NC(=O)[C@@H](NC(=O)OCc2ccccc2)C(C)(C)C)cc1 | p24 | MT-4 | IIIB | - | 0.24 µM | - | 90% |
| CC(=O)O[C@@H]1O[C@H](COC(=O)[C@H](CC(C)C)NC(=O)[C@H](Cc2ccccc2)NC(=O)CNC(=O)CNC(=O)[C@@H](N)Cc2ccc(O)cc2)[C@@H](OC(C)=O)[C@H](OC(C)=O)[C@H]1OC(C)=O | syncytia / RT activity | PBL | - | - | 100 µM | - | 21% |
| Cc1cn([C@H]2C[C@H](N=[N+]=[N-])[C@@H](CO)O2)c(=O)[nH]c1=O | syncytia | HT4 + HT4-6C | LAV-1 | - | 0.1 µM | - | 86% |
| CCCCC[C@H](O)/C=C/[C@H]1C=CC(=O)[C@@H]1CCCCCCC(=O)O | MTT / syncytia | CEM | IIIB | - | 30 µM | - | 77% |
| CCCCn1c2c(c3ccccc31)C(C)=NC(CCCC)(C(=O)OC)C2 | p24 / ELISA / antigen | CEM-GFP | NL4-3 | - | 14.12 µM | - | 0% |
| COc1ccc(C(=O)N2CCN(c3ccc4c(c3)CCC(=O)N4)CC2)cc1OC | cytopathic effect / XTT | CEM + CEM-SS | IIIB | - | 32 µg/mL | - | 82% |
| CCC(C)[C@H](NC(=O)[C@H](C(C)C)[C@@H](O)[C@H](O)[C@H](CC1CCCCC1)NC(=O)[C@@H](NC(=O)CCCCC1SC[C@@H]2NC(=O)NC12)C(C)C)C(=O)NCc1ccccn1 | - | PBMC | D34 | - | 0.1 µM | - | 69% |

The last 5 rows once more:

Cc1cn([C@H]2C[C@H](N=[N+]=[N-])[C@@H](CO)O2)c(=O)[nH]c1=O ; read by: syncytia ; cells: HT4 + HT4-6C ; strain: LAV-1 ; dose: 0.1 µM ; result: 86%
CCCCC[C@H](O)/C=C/[C@H]1C=CC(=O)[C@@H]1CCCCCCC(=O)O ; read by: MTT / syncytia ; cells: CEM ; strain: IIIB ; dose: 30 µM ; result: 77%
CCCCn1c2c(c3ccccc31)C(C)=NC(CCCC)(C(=O)OC)C2 ; read by: p24 / ELISA / antigen ; cells: CEM-GFP ; strain: NL4-3 ; dose: 14.12 µM ; result: 0%
COc1ccc(C(=O)N2CCN(c3ccc4c(c3)CCC(=O)N4)CC2)cc1OC ; read by: cytopathic effect / XTT ; cells: CEM + CEM-SS ; strain: IIIB ; dose: 32 µg/mL ; result: 82%
CCC(C)[C@H](NC(=O)[C@H](C(C)C)[C@@H](O)[C@H](O)[C@H](CC1CCCCC1)NC(=O)[C@@H](NC(=O)CCCCC1SC[C@@H]2NC(=O)NC12)C(C)C)C(=O)NCc1ccccn1 ; cells: PBMC ; strain: D34 ; dose: 0.1 µM ; result: 69%